Test results: paper PMC3307029
Construct, isoform or probe ends are uncertain for at least one entry. For part of these data: At least one verdict was read from the data and is not stated in words by the source.

Experiments:
Test in all cases: EMSA
[1] = system: E2-HC (prototype) (Human papillomavirus type 2 (prototype)); details: weaker than A338V and than E2-C; 10 mM Tris, 50 mM KCl, 1 mM DTT, pH 7.5, room temperature, 20 min, 20 ul; 6.5% native PAGE; recombinant protein; protein details: GST; label: biotin
[2] = system: E2-C (prototype) (Human papillomavirus type 2 (prototype)); details: much stronger than E2-HC and E2-FL; 10 mM Tris, 50 mM KCl, 1 mM DTT, pH 7.5, room temperature, 20 min, 20 ul; 6.5% native PAGE; recombinant protein; protein details: GST; label: biotin
[3] = system: E2-FL (prototype) (Human papillomavirus type 2 (prototype)); details: weaker than A338V and than E2-C; 10 mM Tris, 50 mM KCl, 1 mM DTT, pH 7.5, room temperature, 20 min, 20 ul; 6.5% native PAGE; recombinant protein; protein details: GST; label: biotin

Measured: binding result

GGCGTAACCGAAATCGGTTGAACCGAAACCGGTT (double strand) [HPV-16 prototype LCR oligo]
binds: all assays above
